Results of unrelated studies side by side (data: NIAID ChemDB).

All rows: whole-cell or culture tests; species: Mycobacterium tuberculosis

Lines come from different laboratories, so protocols vary.

compound	cells	measure	tested at	strain	read by	result
Cn1c(=O)c2c(nc3n2CCC(=O)N3)n(C)c1=O	-	MIC bound	-	H37Rv	resazurin	>6.25 µg/mL
Fc1ccc(NC(=S)Nc2ncc(C3CCC3)o2)cc1	-	MIC	-	MDR clinical isolate	agar	0.68 µM
CCN(Cc1ccccc1)c1cc2c(O)c3c(O)c(C)c4c(c13)C(=O)[C@@](C)(O/C=C/[C@H](OC)[C@@H](C)[C@@H](OC(C)=O)[C@H](C)[C@H](O)[C@H](C)[C@@H](O)[C@@H](C)/C=C/C=C(/C)C(=O)N2)O4	-	MIC	-	H37Rv	-	0.1 µg/mL
CCOC(=O)C1=C(C)O/C(=C\c2ccco2)C1=O	-	inhibition	12.5 µg/mL	H37Rv	BACTEC	36%
N#CCCSc1ccnc(C#N)c1	-	MIC	-	331/81	-	250 µM
CO[C@H]1/C=C/O[C@@]2(C)Oc3c(C)c(O)c4c(O)c(cc(N5CCCC(C)C5)c4c3C2=O)NC(=O)/C(C)=C\C=C\[C@H](C)[C@H](O)[C@@H](C)[C@@H](O)[C@@H](C)[C@H](OC(C)=O)[C@@H]1C	-	MIC	-	H37Rv	-	0.1 µg/mL
NC(=S)CSc1cc(C(N)=S)ccn1	-	MIC	-	331/81	-	125 µM
CO[C@H]1/C=C/O[C@@]2(C)Oc3c(C)c(O)c4c(O)c(cc(N(C)C)c4c3C2=O)NC(=O)/C(C)=C\C=C\[C@H](C)[C@H](O)[C@@H](C)[C@@H](O)[C@@H](C)[C@H](OC(C)=O)[C@@H]1C	-	MIC	-	H37Rv	-	0.05 µg/mL
COc1cc(C2Cc3c(OC)cc(C(=O)O)cc3C2COC(C)=O)ccc1O	-	inhibition	6.25 µg/mL	ATCC 27294	resazurin	35%
CO[C@@H]1[C@H](O)[C@@H](C)O[C@@H](OC[C@H](C)[C@H]2OC(=O)[C@H](C)[C@@H](O[C@H]3C[C@H](C)N(C)C[C@H](C)O3)[C@H](C)[C@@H](O[C@@H]3O[C@H](C)C/C(=C\C#N)[C@H]3O)[C@@H](C)C[C@](C)(OC(=O)N3C[C@@H](C)O[C@@H](C)C3)C(=O)[C@H](C)[C@H](OC(=O)CC(C)C)[C@H]2C)[C@@H]1OC	-	MIC	-	H37Rv	resazurin	0.452 µM
N#CCCCSc1ccnc(C(=N)N)c1	-	MIC	-	331/81	-	500 µM
O=C1C2=C(C(=O)c3ccccc31)C(O)(S(=O)(=O)[O-])C(O)(S(=O)(=O)[O-])C1N=CC=CC21.[Na+].[Na+]	-	MIC bound	-	H37Rv	BACTEC	>12.5 µg/mL
O=C1/C(=C/c2ccccc2)CN(C(=O)c2ccccc2)C/C1=C\c1ccccc1	-	EC50	-	H37Rv	-	>6.25 µg/mL
Nn1c(SCC(=O)NCc2ccccc2)nc2ccccc2c1=O	-	inhibition	6.25 µg/mL	H37Rv	resazurin	86%
CO[C@H]1/C=C/O[C@@]2(C)Oc3c(C)c(O)c4c(O)c(c(/C=N/N5CCN(C)CC5)c(O)c4c3C2=O)NC(=O)/C(C)=C\C=C\[C@H](C)[C@H](O)[C@@H](C)[C@@H](O)[C@@H](C)[C@H](OC(C)=O)[C@@H]1C	-	MIC	-	MTCC 200	broth dilution	500 µg/mL
O=C1CN(c2ccc(Cl)cc2)C(=O)CN1/N=C/c1ccco1	-	inhibition	12.5 µg/mL	H37Rv	BACTEC	0%
O=C1/C(=C/c2ccccc2)CN(C(=O)c2ccc(/C=C/C(=O)c3ccc(Cl)cc3)cc2)C/C1=C\c1ccccc1	-	inhibition	6.25 µg/mL	H37Rv	-	0%
Cc1cc(NS(=O)(=O)c2ccc(NC(=O)NCCCl)cc2)no1	-	MIC bound	-	H37Rv	BACTEC	>12.5 µg/mL
O=[N+]([O-])c1ccnc(NC(=S)Nc2ncc(C3CCC3)o2)c1	-	MIC	-	H37Rv	agar	0.15 µM
CC1(C)OC(=O)C(=Cc2ccc(-c3cc(C(F)(F)F)cc(C(F)(F)F)c3)o2)C(=O)O1	-	inhibition	12.5 µg/mL	H37Rv	BACTEC	-1%
CO[C@@H]1[C@H](O)[C@@H](C)O[C@@H](OC[C@H](C)[C@H]2OC(=O)[C@H](C)[C@@H](O[C@H]3C[C@@H](C)N(C)C[C@H](C)O3)[C@H](C)[C@@H](O[C@@H]3O[C@H](C)C/C(=C\C#N)[C@H]3O)[C@@H](C)C[C@](C)(OC(=O)N3CCO[C@@H](C)C3)C(=O)[C@H](C)[C@H](OC(=O)CC(C)C)[C@H]2C)[C@@H]1OC	-	MIC	-	H37Rv	resazurin	0.601 µM
CCCC1(CN2c3ccccc3Sc3ccccc32)CCN(CC)C1.Cl	VERO	MIC	-	H37Rv	BACTEC	12.5 µg/mL
O=[N+]([O-])c1ccc(NC(=S)Nc2ncc(C3CCC3)o2)cc1	-	MIC	-	MDR clinical isolate	agar	0.62 µM
CO[C@H]1/C=C/O[C@@]2(C)Oc3c(C)c(O)c4c(O)c(cc(N(C)Cc5ccccc5)c4c3C2=O)NC(=O)/C(C)=C\C=C\[C@H](C)[C@H](O)[C@@H](C)[C@@H](O)[C@@H](C)[C@H](OC(C)=O)[C@@H]1C	-	MIC	-	H37Rv	-	0.1 µg/mL
COc1ccc2c(C)cc(N/N=C/c3ccccn3)nc2c1	VERO	MIC	-	H37Rv	BACTEC	12.5 µg/mL
O=C(N/N=C/c1cccc(C(F)(F)F)c1)c1ccncc1	-	MIC	-	H37Rv	-	0.1 µg/mL
CO[C@H]1/C=C/O[C@@]2(C)Oc3c(C)c(O)c4c(O)c(c(/C=N/N5CCN(C6CCCC6)CC5)c(O)c4c3C2=O)NC(=O)/C(C)=C\C=C\[C@H](C)[C@H](O)[C@@H](C)[C@@H](O)[C@@H](C)[C@H](OC(C)=O)[C@@H]1C	-	MIC	-	23 strains (rifampicin-susceptible)	-	≤0.16 µg/mL
COc1ccc(N(C)CCCC(C#N)(c2ccc(OC)c(OC)c2)C(C)C)cc1OC	-	MIC99	-	H37Rv	resazurin	>1000 µM
CC(=O)Nc1ccc(OCC(=O)N/N=C/c2ccccc2Cl)cc1	-	EC50	-	H37Rv	-	>12.5 µg/mL
CCC1CCC2CN(/N=C/c3c4c(O)c5c(O)c(C)c6c(c5c3O)C(=O)[C@@](C)(O/C=C/[C@H](OC)[C@@H](C)[C@@H](OC(C)=O)[C@H](C)[C@H](O)[C@H](C)[C@@H](O)[C@@H](C)/C=C/C=C(/C)C(=O)N4)O6)CCN2C1	-	MIC	-	23 strains (rifampicin-susceptible)	-	≤0.04 µg/mL
CC(=O)c1ccc(NC(=O)C(=O)Nn2c(=S)[nH]c3ccccc3c2=O)cc1	-	inhibition	12.5 µg/mL	H37Rv	BACTEC	8%
O=C(/C=C/C(=O)N1C/C(=C\c2ccccc2)C(=O)/C(=C/c2ccccc2)C1)Nc1ccccc1	-	EC50	-	H37Rv	-	>6.25 µg/mL
C=C1C[C@]2(C)c3ccccc3NC(=O)[C@H]12	-	MIC bound	-	H37Rv	BACTEC	>12.5 µg/mL
C=C[C@](C)(O)CC[C@@H]1[C@@]2(C)CCCC(C)(C)[C@@H]2CC[C@@]1(C)O	-	MIC	-	-	-	6 µg/mL
Cc1cccc(NC(=S)Nc2ncc(C3CCC3)o2)n1	-	MIC	-	MDR clinical isolate	agar	2.7 µM
N#CCSc1cc(C#N)ccn1	-	MIC	-	331/81	-	31 µM
CO[C@H]1/C=C/O[C@@]2(C)Oc3c(C)c(O)c4c(O)c(c(/C=N/N5CCN(C)CC5)c(O)c4c3C2=O)NC(=O)/C(C)=C\C=C\[C@H](C)[C@H](O)[C@@H](C)[C@@H](O)[C@@H](C)[C@H](OC(C)=O)[C@@H]1C	-	MIC	-	23 strains (rifampicin-susceptible)	-	≤0.6 µg/mL
CCCCCOC(=O)c1cn(-c2ccccn2)nn1	-	inhibition	6.25 µg/mL	H37Rv	-	99%
CC1COc2c(N3CCN(C)CC3)c(F)cc3c(=O)c(C(=O)O)cn1c23	-	MIC50	-	18 isolates	-	1 µg/mL
COC(=O)c1cn(-c2cc(C)ccn2)nn1	-	inhibition	6.25 µg/mL	H37Rv	-	0%
CC(=O)Nc1ccc(OCC(=O)N/N=C/c2ccco2)cc1	-	EC50	-	H37Rv	-	>12.5 µg/mL
NNC(=O)Cc1cccnc1	-	MIC bound	-	H37Rv	BACTEC	>12.5 µg/mL
O=c1cccc(NC(=S)Nc2ncc(C3CCC3)o2)[nH]1	-	MIC	-	MDR clinical isolate	agar	5.39 µM
O=C1/C(=C/c2ccccc2)CN(C(=O)c2ccc([N+](=O)[O-])cc2)C/C1=C\c1ccccc1	-	inhibition	6.25 µg/mL	H37Rv	-	0%
CO[C@H]1/C=C/O[C@@]2(C)Oc3c(C)c(O)c4c(O)c(c(/C=N/N5CCN(C)CC5)c(O)c4c3C2=O)NC(=O)/C(C)=C\C=C\[C@H](C)[C@H](O)[C@@H](C)[C@@H](O)[C@@H](C)[C@H](OC(C)=O)[C@@H]1C	-	MIC	-	ATCC 35338	broth dilution	>2 µg/mL
CO[C@H]1/C=C/O[C@@]2(C)Oc3c(C)c(O)c4c(O)c(cc(O)c4c3C2=O)NC(=O)/C(C)=C\C=C\[C@H](C)[C@H](O)[C@@H](C)[C@@H](O)[C@@H](C)[C@H](OC(C)=O)[C@@H]1C	-	MIC	-	BCG	-	0.005 µg/mL
CO[C@H]1/C=C/O[C@@]2(C)Oc3c(C)c(O)c4c(O)c(cc(N5CCOCC5)c4c3C2=O)NC(=O)/C(C)=C\C=C\[C@H](C)[C@H](O)[C@@H](C)[C@@H](O)[C@@H](C)[C@H](OC(C)=O)[C@@H]1C	-	MIC	-	H37Rv	-	0.1 µg/mL
Cc1ccc(NC(=S)Nc2ncc(C3CCC3)o2)cc1	-	MIC	-	H37Rv	agar	6.12 µM
C[C@]12CC[C@H]3C(CCC4=CC(=O)CC[C@@]43C)[C@@H]1CC[C@@H]2c1csc(N)n1	-	MIC bound	-	H37Rv	BACTEC	>6.25 µg/mL
COC(=O)c1ccc(O)c(O)c1	-	inhibition	6.25 µg/mL	ATCC 27294	resazurin	24%
CC(C)CNC(=O)CCc1cccc2c1oc1c(CCN)cccc12	-	MIC bound	-	H37Rv	BACTEC	>12.5 µg/mL
CC(=O)Nc1ccc(OCC(=O)NN2C(=O)C(C)SC2c2ccc(Cl)cc2)cc1	-	inhibition	12.5 µg/mL	H37Rv	-	0%
CCOC(=O)c1ccc(NC(=O)Oc2cc(=O)oc3ccccc23)cc1	-	MIC bound	-	H37Rv	BACTEC	>12.5 µg/mL
C=CCn1c[n+](C)c2ncnc(NOC)c21	-	inhibition	6.25 µg/mL	-	-	27%
CO[C@H]1[C@@H](OC(=O)/C=C/C=C/C=C/C=C/C(=O)O)CC[C@@]2(CO2)[C@@H]1[C@@]1(C)O[C@@H]1CC=C(C)C	-	inhibition	12.8 µg/mL	H37Rv	BACTEC	17%
CO[C@@H]1[C@H](O)[C@@H](C)O[C@@H](OC[C@H](C)[C@H]2OC(=O)[C@H](C)[C@@H](O[C@H]3C[C@@H](C)N(C)C[C@H](C)O3)[C@H](C)[C@@H](O[C@@H]3O[C@H](C)C/C(=C\C#N)[C@H]3O)[C@@H](C)C[C@](C)(OC(=O)N3CCO[C@H](C)C3)C(=O)[C@H](C)[C@H](OC(=O)CC(C)C)[C@H]2C)[C@@H]1OC	-	MIC	-	H37Rv	resazurin	0.621 µM
CC1=CC2(C)OC3C(=O)N(c4ccc(Cl)cc4)C(=O)C3C2N=C1	-	MIC bound	-	H37Rv	BACTEC	>12.5 µg/mL
CC(=O)Nc1ccc(OCC(=O)NN2C(=O)C(C)SC2c2ccco2)cc1	-	EC50	-	H37Rv	-	>12.5 µg/mL
O=C1/C(=C/c2ccccc2)CN(C(=O)c2ccc(/C=C/C(=O)c3ccc([N+](=O)[O-])cc3)cc2)C/C1=C\c1ccccc1	-	EC50	-	H37Rv	-	>6.25 µg/mL
CCOC(=O)CSc1ccnc(C(N)=S)c1	-	MIC	-	331/81	-	500 µM
CCOC(=O)c1cn(-c2cc(C)ccn2)nn1	-	MIC	-	H37Rv	-	>6.25 µg/mL
O=Cc1ccc(CN2C(=O)c3ccccc3C2=O)o1	-	inhibition	12.5 µg/mL	H37Rv	BACTEC	6%
NC(=S)c1ccnc(N2CCCCC2)c1	-	MIC	-	331/81	-	500 µM
CCCCCCCCCCCC(=O)NC1CC(O[C@H]2C[C@](O)(C(=O)CO)Cc3c(O)c4c(c(O)c32)C(=O)c2c(OC)cccc2C4=O)OC(C)C1O	-	inhibition	12.5 µg/mL	H37Rv	BACTEC	-6%
CC[C@@H](CO)NCCN[C@@H](CC)CO	-	MIC	-	MTCC 200	broth dilution	40 µg/mL
Cc1ccc(/C=C/C(=O)N2C/C(=C\c3ccccc3)C(=O)/C(=C/c3ccccc3)C2)cc1	-	EC50	-	H37Rv	-	>6.25 µg/mL
COc1cc(C2Cc3c(OC)cc(C(=O)O)cc3C2COC(C)=O)ccc1OC(C)=O	-	inhibition	6.25 µg/mL	ATCC 27294	resazurin	38%
C=CCC1=C(C)C(OC(=O)/C=C/c2ccco2)CC1=O	-	inhibition	12.5 µg/mL	H37Rv	BACTEC	10%
CC(=O)Oc1ccccc1C(=O)Nc1cnccn1	-	MIC	-	H37Rv	resazurin	>100 µg/mL

The first 5 rows once more:

compound,cells,measure,tested at,strain,read by,result
Cn1c(=O)c2c(nc3n2CCC(=O)N3)n(C)c1=O,-,MIC bound,-,H37Rv,resazurin,>6.25 µg/mL
Fc1ccc(NC(=S)Nc2ncc(C3CCC3)o2)cc1,-,MIC,-,MDR clinical isolate,agar,0.68 µM
CCN(Cc1ccccc1)c1cc2c(O)c3c(O)c(C)c4c(c13)C(=O)[C@@](C)(O/C=C/[C@H](OC)[C@@H](C)[C@@H](OC(C)=O)[C@H](C)[C@H](O)[C@H](C)[C@@H](O)[C@@H](C)/C=C/C=C(/C)C(=O)N2)O4,-,MIC,-,H37Rv,-,0.1 µg/mL
CCOC(=O)C1=C(C)O/C(=C\c2ccco2)C1=O,-,inhibition,12.5 µg/mL,H37Rv,BACTEC,36%
N#CCCSc1ccnc(C#N)c1,-,MIC,-,331/81,-,250 µM

Percent inhibition refers to the dose given; in toxicity tests it is the harm to the cells. MIC bound comes from a single tested concentration. ECn is the concentration giving n% inhibition of infection, replication or growth. MIC50, MIC90 and the like: level of inhibition, or share of isolates inhibited. Blank or dashed fields: not listed here.